Results of unrelated studies side by side (data: NIAID ChemDB).

Common to all: tests in culture; organism: Human cytomegalovirus

ECn is the concentration giving n% inhibition of infection, replication or growth. An empty or dashed field is not shown. Lines come from different laboratories, so protocols vary. a–b is a range or a potency band.

compound | endpoint | strain | cells | read by | value
Nc1nc2c(ncn2COC(CO)CO)c(=O)[nH]1 | EC50 | TOWNE | HFF | virus yield | <1.8 µM
Nc1nccc2c1ncn2C(C=O)OC(C=O)CO | EC50 | DAVIS (20 PFU) | HEL | plaque count | 0.25 µg/mL
CC(=O)OC(SCCC(C)C)C(CC(C)C)NC(=O)[C@@H](NC(=O)[C@H](CCCN=C(N)NS(=O)(=O)c1ccc(C)cc1)NC(=O)OCc1cc(C)ccc1C)C(C)C | EC50 |  |  |  | 0.028 µM
Cc1cc(O)c2c(c1)Cc1cc(O)cc(O)c1C2=O | EC50 | AD169 | MRC-5 | plaque count | 2.3 µM
Nc1ncnc2c1ncn2[C@@H]1C=C(CO)[C@@H](O)[C@H]1O | EC50 | DAVIS (100 PFU) | HEL | cytopathic effect | 0.3 µg/mL
CC1CNCCN1S(=O)(=O)c1cccc2cnccc12 | EC50 | AD169 | HEF | plaque count | 12.5 µM
CCCCCNc1ccc(NCCCCC)c2c1C(=O)c1ccccc1C2=O | EC50 | AD169 | HFF | cytopathic effect | >260 µM
Nc1ccn(C[C@@H](CO)OCP(=O)(O)O)c(=O)n1 | EC50 | CMV5USA | HEL | plaque count | 0.1 µg/mL
Nc1ncnc2c1ncn2C[C@H]1COP(=O)(O)CO1 | EC50 | 2 strains | HEL | plaque count | 0.1 µg/mL
OC[C@H]1C[C@]1(CO)Cn1c(Br)nc2cc(Cl)c(Cl)cc21 | EC50 |  | MRC-5 |  | 2 µg/mL
Nc1ccnc2c1ncn2C1CC(O)C(CO)O1 | EC50 | AD169 | HEL |  | >100 µM
O=C(NCCc1c[nH]c2ccccc12)C1=Cc2ccncc2CC1 | EC50 | C8704 | MRC-5 | plaque count | 0.09 µM
Nc1nc2c(ncn2COC(CO)CO)c(=O)[nH]1 | EC50 | AD169 | MRC-5 | plaque count | 10.6 µM
Nc1nc2c(ncn2COC(CO)CO)c(=O)[nH]1 | EC50 | AD169 | HEF | plaque count | 3.8 µM
O=c1ccn(CC(CO)OCP(=O)(O)O)c(=O)[nH]1 | EC50 | 2 strains | HEL | plaque count | 25 µg/mL
C[C@@]1(CO)[C@H](O)CC[C@@]2(C)[C@H]1CC[C@H]1C[C@@H]3C[C@@]12CC[C@]3(O)CO | EC50 |  |  | plaque count | 1 µM
CC(=O)Nc1ccc(Nc2cc(S(=O)(=O)O)c(N)c3c2C(=O)c2ccccc2C3=O)cc1 | EC50 | AD169 | HFF | cytopathic effect | 10 µM
N#CCn1ccc(=O)n(Cc2ccc(-c3ccccc3)cc2)c1=O | EC50 | AD169 |  |  | 4.73 µM
Nc1ncnc2c1ncn2[C@H]1[C@H](O)[C@H](O)[C@@H](CO)[C@H]1F | EC50 | DAVIS (100 PFU) | HEL | cytopathic effect | 0.035 µg/mL
O[C@@H]1[C@H](O)[C@@H](CF)O[C@H]1n1c(Cl)nc2cc(Cl)c(Cl)cc21 | EC50 |  | MRC-5 |  | 0.5 µM
Cc1cc(Nc2ccc(O)c3c2C(=O)c2ccccc2C3=O)cc(S(=O)(=O)O)c1 | EC50 | EC | HFF | plaque count | 120 µM
Cc1cc(C)cc(Cn2c(=O)ccn(Cc3ccccc3)c2=O)c1 | EC50 | AD169 |  |  | 1 µM
C[C@H](N)C(=O)OCP(=O)(OC[C@H]1O[C@@H](n2ccc3c(N)ncnc32)C[C@@H]1O)Oc1ccccc1 | EC50 | AD169 | HEL |  | >100 µM
CC(C)Nc1nc2cc(Cl)c(Cl)cc2n1[C@H]1O[C@@H](CO)[C@H](O)[C@@H]1O | EC50 | P | MRC-5 | plaque count | 0.69 µM
O=c1cc(-c2ccc(O)c(O)c2)oc2cc(O)cc(O)c12 | EC50 | AD169 | HEF | plaque count | 10.1 µM
Nc1nc2c(ncn2COC(CO)CO)c(=O)[nH]1 | EC50 | AD169 | HEL |  | 7.5 µM
Nc1ncnc2c1ncn2[C@@H]1C[C@H](CO)[C@@H](O)[C@H]1O | EC50 | DAVIS (20 PFU) | HEL | plaque count | >100 µg/mL
Nc1c(S(=O)(=O)O)cc(Nc2ccccc2)c2c1C(=O)c1ccccc1C2=O | EC50 | AD169 | HFF | cytopathic effect | 40 µM
N#CCn1ccc(=O)n(Cc2cc(F)cc(F)c2)c1=O | EC50 | AD169 |  |  | >180 µM
CC1(C)OC[C@]2(C)[C@@H](CC[C@@]3(C)[C@H]2CC[C@H]2C[C@@H]4CC23CC[C@@]4(C)O)O1 | EC50 |  | HFF | plaque count | >500 µM
Nc1nc2c(ncn2COC(CO)CO)c(=O)[nH]1 | EC50 | U9070 (ganciclovir-resistant) | HEL | plaque count | 5.6 µg/mL
Nc1ncnc2c1ncn2C[C@@H](CO)OCP(=O)(O)O | EC50 | 2 strains | HEL | plaque count | 0.15 µg/mL
Nc1ccn([C@@H]2C=C[C@H](P(=O)(O)O)O[C@@H]2CO)c(=O)n1 | EC50 |  |  |  | 10–300 µM
C[C@H](N)C(=O)OCP(=O)(OC[C@H]1O[C@@H](n2cc(/C=C/Br)c(=O)[nH]c2=O)C[C@@H]1O)Oc1ccccc1 | EC50 | AD169 | HEL |  | >20 µM
COc1cc(Cn2c(=O)ccn(CC#N)c2=O)cc(OC)c1OC | EC50 | AD169 |  |  | >151 µM
O=C(O)P(=O)(O)O | EC90 | AD169 | MRC-5 | plaque count | 150 µM
O=c1ccn(Cc2c(F)cccc2F)c(=O)n1Cc1c(F)cccc1F | EC50 | AD169 |  |  | >14 µM
COc1cc(O)c2c(c1)C(=O)c1cc(C)cc(O)c1C2=O | EC50 | AD169 | MRC-5 | plaque count | >35.2 µM
C[C@]12CCC3OC[C@@]3(C)[C@@H]1CC[C@H]1C[C@@H]3CC12CC[C@]3(O)CO | EC50 |  | HFF | plaque count | >500 µM
O=C(O)C[C@H](NCCN[C@@H](CC(=O)O)C(=O)O)C(=O)O | EC50 | DAVIS | HEL | plaque count | 11.8 µg/mL
Nc1nc2c(ncn2CCOCP(=O)(O)O)c(=O)[nH]1 | EC50 | 2 strains | HEL | plaque count | 0.25 µg/mL
CCCNC(=O)c1cn([C@@H]2O[C@H](COP(=O)(O)O)[C@@H](O)[C@H]2O)c(=O)nc1N | EC50 |  | HFF |  | 0.03 µg/mL
Nc1nccc2c1ncn2[C@H]1C[C@H](O)[C@@H](CO)O1 | EC50 | DAVIS | HEL |  | >100 µM
Nc1nccc2c1ncn2[C@@H]1C[C@H](CO)[C@@H](O)[C@H]1O | EC50 | DAVIS (20 PFU) | HEL | plaque count | 0.95 µg/mL
N=c1ccc(=Nc2ccc(N)c3c(O)c4ccccc4c(O)c23)c2c(=O)c3ccccc3c(=O)c1=2 | EC50 | AD169 | HFF | cytopathic effect | 30 µM
O=C1c2cccc(O)c2C(=O)c2c(O)cc(CO)cc21 | EC50 | AD169 | MRC-5 | plaque count | >37 µM
N#CCn1ccc(=O)n(Cc2cccc3ccccc23)c1=O | EC50 | AD169 |  |  | 48 µM
CC1(C)CCC[C@@]2(C)[C@H]1CC[C@H]1C[C@@H]3CC12CCC3=O | EC50 |  | HFF | plaque count | >500 µM
CC1=CC(S(=O)(=O)O)=C(Nc2cccc3c2C(=O)c2cccc(Nc4ccc(C)cc4S(=O)(=O)O)c2C3=O)CC1 | EC50 | EC | HFF | plaque count | 50 µM
CC(C)(C)C(=O)OCOC(=O)CN(CC(=O)OCOC(=O)C(C)(C)C)P(=O)(OC[C@H]1O[C@@H](n2ccc3c(N)ncnc32)C[C@@H]1O)Oc1ccccc1 | EC50 | DAVIS | HEL |  | >100 µM
Cc1ccc(S(=O)(=O)NC(N)=NCCC[C@H](NC(=O)OCc2cc(C)ccc2C)C(=O)N[C@H](C(=O)NC(Cc2ccccc2)C2NC(C(=O)O)CCS2)C(C)C)cc1 | EC50 |  |  |  | 0.012 µM
O=c1ccn(Cc2ccccc2)c(=O)n1Cc1ccccc1 | EC50 | AD169 |  |  | 24 µM

Repeating the final 7 entries:

compound | endpoint | strain | cells | read by | value
O=C1c2cccc(O)c2C(=O)c2c(O)cc(CO)cc21 | EC50 | AD169 | MRC-5 | plaque count | >37 µM
N#CCn1ccc(=O)n(Cc2cccc3ccccc23)c1=O | EC50 | AD169 |  |  | 48 µM
CC1(C)CCC[C@@]2(C)[C@H]1CC[C@H]1C[C@@H]3CC12CCC3=O | EC50 |  | HFF | plaque count | >500 µM
CC1=CC(S(=O)(=O)O)=C(Nc2cccc3c2C(=O)c2cccc(Nc4ccc(C)cc4S(=O)(=O)O)c2C3=O)CC1 | EC50 | EC | HFF | plaque count | 50 µM
CC(C)(C)C(=O)OCOC(=O)CN(CC(=O)OCOC(=O)C(C)(C)C)P(=O)(OC[C@H]1O[C@@H](n2ccc3c(N)ncnc32)C[C@@H]1O)Oc1ccccc1 | EC50 | DAVIS | HEL |  | >100 µM
Cc1ccc(S(=O)(=O)NC(N)=NCCC[C@H](NC(=O)OCc2cc(C)ccc2C)C(=O)N[C@H](C(=O)NC(Cc2ccccc2)C2NC(C(=O)O)CCS2)C(C)C)cc1 | EC50 |  |  |  | 0.012 µM
O=c1ccn(Cc2ccccc2)c(=O)n1Cc1ccccc1 | EC50 | AD169 |  |  | 24 µM